Target: variola F10 kinase (GST-F10) (Variola virus, UniProt P33801, R299C)
Details: for Percent activity remaining at 10 μM, F10: 10 μM inhibitor; for Effect on F10 kinase activity in vitro (in words): 10 μM in the screen

| SMILES | Percent activity remaining at 10 μM, F10 [%] | Effect on F10 kinase activity in vitro (in words) |
| --- | --- | --- |
| O=C(O)C=Cc1c2ccc(=O)c(O)c-2oc2c(O)c(O)ccc12 [Compound 119911-V, 3-(4,5,6-trihydroxy-3-oxo-xanthen-9-yl)prop-2-enoic acid] | 2 | – |
| O=C(O)C1CCCCC1c1c2ccc(=O)c(O)c-2oc2c(O)c(O)ccc12 (stereo not shown) [Compound 119910-U, 2-(4,5,6-trihydroxy-3-oxo-xanthen-9-yl)cyclohexane-1-carboxylic acid] | 6 | – |
| O=C(O)C=Cc1ccc[c]([Sb](=[O])([OH])[OH])c1 [Compound 13778-J, 3-(3-stibonophenyl)prop-2-enoic acid] | 4 ± 4 | specifically inhibited GST-F10 |
| CC1C2C=CC1C(c1c3ccc(=O)c(O)c-3oc3c(O)c(O)ccc13)C2C(=O)O (stereo not shown) [Compound 119913-X, 7-methyl-6-(4,5,6,-trihydroxy-3-oxo-xanthen-9-yl)-bicyclo[2.2.1]hetp-2-ene-5-carboxylic acid] | 2 | – |
| O=C(O)c1cc2c(cc1S(=O)(=O)O)C1C(C3C2C2(Cl)C(Cl)=C(Cl)C3(Cl)C2(Cl)Cl)C2(Cl)C(Cl)=C(Cl)C1(Cl)C2(Cl)Cl (stereo not shown) [Compound 270718-R, 3-sulfo-2-naphthoic acid-bis(hexachlorocyclopentadiene) adduct] | 19 ± 18 | – |
| O=S(=O)(O)c1ccc(NN(c2c(O)ccc3ccccc23)S(=O)(=O)O)cc1 [Compound 9600-Q, 4-[N′-(2-hydroxynaphthalen-1-yl)-N′-sulfo-hydrazino]benzenesulfonic acid] | 8 ± 5 | specifically inhibited GST-F10 |
| CCc1c(O)c2c(c(O)c1C(C)=O)C(=O)c1c(cc(O)c(C(=O)O)c1C(=O)O)C2=O [Compound 170008-Y, 2-acetyl-7,8-bis(dihydroxymethylidene)-3-ethyl-9-hydroxy-anthracene-1,4,6,10-tetrone] | 2 | – |
| O=C1c2ccccc2C(=O)c2c(NC3CCCCC3)ccc(Nc3ccc(S(=O)(=O)O)cc3)c21 [Compound 128437-O, 4-(4-cyclohexylamino-9,10-dioxo-anthracen-1-yl)aminobenzenesulfonic acid] | 12 | specifically inhibited GST-F10 |
| Nc1nc(N)c(/N=N/c2ccc(C(=O)O)c(O)c2)c(N)n1 [Compound 117285-R, 2-hydroxy-4-(2,4,6-triaminopyrimidin-5-yl)diazenyl-benzoic acid] | 48 ± 20 | – |
| O=C(O)c1cccc(/N=N/c2c(S(=O)(=O)O)ccc3c2C(=O)c2ccccc2C3=O)c1O [Compound 125908-P, 3-(9,10-dioxo-2-sulfo-anthracen-1-yl)diazenyl-2-hydroxy-benzoic acid] | 8 | specifically inhibited GST-F10 |
| CN[C@@H]1C[C@H]2O[C@@](C)([C@@H]1OC)n1c3ccccc3c3c4c(c5c6ccccc6n2c5c31)C(=O)NC4 [staurosporine, reference compound] | – | inhibited B1 or F10 kinase |
| O=C(O)CCc1c2ccc(=O)c(O)c-2oc2c(O)c(O)ccc12 [Compound 119915-Z, 3-(4,5,6-trihydroxy-3-oxo-xanthen-9-yl)propanoic acid] | 4 | – |

Reference: patent US8076375B2 (priority 2005, dated 2011)
